Here are results for one compound from patent publication US20040039062A1, “Urea, ruminally synthesizable mainly to microbial crude protein” (Agri-Nutrients Technology Group, Inc., priority 2002, published 2004).

The data set has as its system Fresh rumen fluid. Kind of data set: In-vitro urea conversion test: ruminal synthesis of urea to microbial crude protein (MCP) in rumen fluid. On the set-up: species or system heifer. On the procedure:
A series of urea conversion in-vitro tests were arranged using the following materials: (1) Fresh rumen fluid withdrawn via a pump through a strainer from a heifer receiving no feed for the prior two days. (2) Simulated Saliva composition of E. I. McGougal in Biochemical Journal, Vol. 43, page 106. (3) Cellulose energy source, Whatman Chromedia Microgranular Cellulose, free from other nutrient compounds. […] The in-vitro tests were run with each sample in a 250 ml Erlenmeyer flask receiving the ingredients listed as follows: [table] The test flasks were placed in a constant temperature bath operating at 39° C. Carbon dioxide was used to displace the air in the flasks. Samples amounting to 10 grams were withdrawn on an accurate time schedule with the air in the sample container replaced by carbon dioxide. The samples were immediately treated with 1 percent mercuric chloride to terminate microbial activity in the samples. The samples were analyzed for total nitrogen, ammonia nitrogen, and […] by difference.

As to `NC(N)=O` [Test No. 6, urea], the “NH3 Conc. (8 hours)” value came to 0.087 Wt % and the “Total N Content (8 hours)” value was 0.09 Wt %.
